Compound potency records, mixed from different reports. Data source: NIAID ChemDB in PubChem.

Shared fields: tests in culture; agent: Cryptococcus neoformans; endpoint: MIC80

A number after MIC or MFC names an inhibition level or a share of isolates.

O=C1S/C(=C\c2ccc(Cl)cc2Cl)C(=O)N1CC(O)(Cn1nccn1)c1ccc(F)cc1F ; strain: CNCYP51 ; value: 0.12 µg/mL
CO/N=C(/N)c1ccc(-c2ccc(-c3ccc(/C(N)=N\OC)cc3)o2)cc1 ; strain: H99 ; value: >100 µg/mL
C[C@@H](N1CCN(Cc2cn(Cc3ccc(Cl)cc3)c3ccccc23)CC1)[C@](O)(Cn1cncn1)c1ccc(F)cc1F ; strain: ATCC 36556 ; method: resazurin ; value: >128 µg/mL
Cc1ccc(/C=C/C(=O)OC2CCN(CC(O)(Cn3cncn3)c3ccc(F)cc3F)CC2)cc1 ; strain: BLS108 ; method: broth dilution ; value: 0.13 µM
C[C@@H](N1CCN(Cc2cn(Cc3ccc(F)cc3)c3c(F)cccc23)CC1)[C@](O)(Cn1cncn1)c1ccc(F)cc1F ; strain: ATCC 36556 ; method: resazurin ; value: >128 µg/mL
CCC(C)n1ncn(-c2ccc(N3CCN(c4ccc(OC[C@H]5CO[C@](Cn6cncn6)(c6ccc(Cl)cc6Cl)O5)cc4)CC3)cc2)c1=O ; strain: BLS108 ; method: broth dilution ; value: 0.354 µM
N=C(N)c1ccc(OCCCC(O)COc2ccc(C(=N)N)cc2)cc1 ; strain: 114.96 ; value: 0.78 µg/mL
OC(Cn1cncn1)(Cn1cncn1)c1ccc(F)cc1F ; value: 4.62 µg/mL
O=C(COc1cccc2ccccc12)OC1CCN(CC(O)(Cn2cncn2)c2ccc(F)cc2F)CC1 ; strain: BLS108 ; method: broth dilution ; value: 0.479 µM
C[C@@H](N1CCN(Cc2cn(Cc3ccc(Cl)cc3Cl)c3c(F)cccc23)CC1)[C@](O)(Cn1cncn1)c1ccc(F)cc1F ; strain: ATCC 36556 ; method: resazurin ; value: >128 µg/mL
CCCC(C)(C)C(=O)OC1CCN(CC(O)(Cn2cncn2)c2ccc(F)cc2F)CC1 ; strain: BLS108 ; method: broth dilution ; value: 0.573 µM
O=C1S/C(=C\c2ccoc2)C(=O)N1CC(O)(Cn1nccn1)c1ccc(F)cc1F ; value: 2.31 µg/mL
N#Cc1ccc(/C=C/C(=O)OC2CCN(CC(O)(Cn3cncn3)c3ccc(F)cc3F)CC2)cc1 ; strain: BLS108 ; method: broth dilution ; value: 0.127 µM
OC(CN1CCN(c2ccc(OCc3ccncc3)cc2)CC1)(Cn1cncn1)c1ccc(F)cc1F ; strain: S18012 ; value: 0.5 µg/mL
C=CCc1ccc(Cn2cc(CN3CCN([C@H](C)[C@](O)(Cn4cncn4)c4ccc(F)cc4F)CC3)c3cccc(F)c32)cc1 ; strain: ATCC 36556 ; method: resazurin ; value: >128 µg/mL
O=C(/C=C/c1ccccc1[N+](=O)[O-])OC1CCN(CC(O)(Cn2cncn2)c2ccc(F)cc2F)CC1 ; strain: BLS108 ; method: broth dilution ; value: 0.122 µM
CC(O)Cc1ccc(Cn2cc(CN3CCN([C@H](C)[C@](O)(Cn4cncn4)c4ccc(F)cc4F)CC3)c3ccccc32)cc1 ; strain: ATCC 36556 ; method: resazurin ; value: >128 µg/mL
N=C(N)c1ccc(NCCCNc2ccc(C(=N)N)cc2[N+](=O)[O-])c([N+](=O)[O-])c1 ; strain: 114.95 ; value: 6.25 µg/mL
C[C@@H](N1CCN(Cc2cn(Cc3ccc(Cl)cc3Cl)c3cc(Cl)ccc23)CC1)[C@](O)(Cn1cncn1)c1ccc(F)cc1F ; strain: ATCC 36556 ; method: resazurin ; value: >128 µg/mL
N=C(N)c1ccc2nc(CCCc3nc4ccc(C(=N)N)cc4[nH]3)[nH]c2c1 ; strain: H99 ; value: >100 µg/mL
C[C@@H](N1CCN(Cc2cn(Cc3ccc(Cl)cc3Cl)c3ccccc23)CC1)[C@](O)(Cn1cncn1)c1ccc(F)cc1F ; strain: ATCC 36556 ; method: resazurin ; value: >128 µg/mL
O=C(/C=C/c1ccccc1Cl)OC1CCN(CC(O)(Cn2cncn2)c2ccc(F)cc2F)CC1 ; strain: BLS108 ; method: broth dilution ; value: 0.498 µM
Cn1nc(Cc2ccc(Cl)cc2)c2ccccc2c1=O ; strain: Clinical isolate (IM 983040) ; method: broth dilution ; value: 3.9 µg/mL
O=C1S/C(=C\c2ccc(F)cc2)C(=O)N1CC(O)(Cn1nccn1)c1ccc(F)cc1F ; value: 4.34 µg/mL
CC(C)N=C(N)c1ccc2nc(-c3ccc(CCc4ccc(-c5nc6ccc(C(N)=NC(C)C)cc6[nH]5)cc4)cc3)[nH]c2c1 ; strain: 135.95 ; value: ≤0.09 µg/mL

A second listing of 3 rows from above:

| structure | strain | method | value |
|---|---|---|---|
| O=C(/C=C/c1ccccc1Cl)OC1CCN(CC(O)(Cn2cncn2)c2ccc(F)cc2F)CC1 | BLS108 | broth dilution | 0.498 µM |
| N=C(N)c1ccc(NCCCNc2ccc(C(=N)N)cc2[N+](=O)[O-])c([N+](=O)[O-])c1 | 114.95 | - | 6.25 µg/mL |
| Cn1nc(Cc2ccc(Cl)cc2)c2ccccc2c1=O | Clinical isolate (IM 983040) | broth dilution | 3.9 µg/mL |

Blank or dashed fields: not listed here. Lines come from different laboratories, so protocols vary.